A mixed list of measured activities; the numbers were collected in NIAID ChemDB.

Common to all: whole-cell or culture tests; species: HIV-1; read-out: EC50

a–b is a range or a potency band. Lines come from different laboratories, so protocols vary. An empty or dashed field is not shown. ECn is the concentration giving n% inhibition of infection, replication or growth.

smiles,method,cell line,strain or isolate,value
O=C1Cc2cc(-c3cccc4c3sc3ccccc34)ccc2C(=O)N1O,cytopathic effect / absorbance,CEM-SS,IIIB,>10 µM
O=C(NC1CCCC1)c1ccc(C2=NN3C(C(=O)c4ccc(F)cc4)Oc4ccccc4C3C2)cc1,GFP / reporter gene,MT-4,LAI,<1 µM
CC(C)C1=C2[C@H]3CC[C@@H]4[C@@]5(C)CC[C@H](OC(=O)[C@H]6C[C@@H](C(=O)O)C6(C)C)C(C)(C)[C@@H]5CC[C@@]4(C)[C@]3(C)CC[C@@]2([C@@H](O)CN(CCN(C)C)C(=O)c2ccncn2)CC1=O,p24 / ELISA,MT-2,92HT599,<1 µM
CN1C(c2ccccc2Cl)c2ccccc2S1(=O)=O,p24 / RT activity,,,0.093 µM
COc1ccccc1CNC(=O)c1ccc(C2=NN3C(C(=O)c4ccc(F)cc4)Oc4ccccc4C3C2)cc1,GFP / reporter gene,MT-4,LAI,>10 µM
O=S1(=O)NC(c2cccc(Cl)c2)c2ccccc21,p24 / RT activity,,,33.8 µM
CCCCn1cc(N)c(=O)c2cnc(-c3ccncc3)nc21,p24 / trypan blue,H9,IIIB,3.5 µM
CCNC(=O)c1ccc(C2=NN3C(C(=O)c4ccc(F)cc4)Oc4ccccc4C3C2)cc1,GFP / reporter gene,MT-4,LAI,>10 µM
Cc1occc1C(=S)Nc1ccc(Cl)c(/C=N/OC(C)(C)C)c1,cytopathic effect / XTT,CEM + CEM-SS,IIIB,0.2 µM
CN1C(c2cccc(Br)c2)c2ccccc2S1(=O)=O,p24 / RT activity,,,0.781 µM
COc1ccc(OC)c(CNC(=O)c2ccc(C3=NN4C(C(=O)c5ccc(F)cc5)Oc5ccccc5C4C3)cc2)c1,GFP / reporter gene,MT-4,LAI,1–10 µM
O=C1Cc2cc(-c3ccc4c(c3)OCO4)ccc2C(=O)N1O,cytopathic effect / absorbance,CEM-SS,IIIB,>10 µM
CN(CCNC(C)(C)C)C(=O)c1ccc(C2=NN3C(C(=O)c4ccc(F)cc4)Oc4ccccc4C3C2)cc1,GFP / reporter gene,MT-4,LAI,1–10 µM
O=C1Cc2c(cccc2-c2ccccc2)C(=O)N1O,cytopathic effect / absorbance,CEM-SS,IIIB,>10 µM
COc1ccc(/C=C/C(=O)c2c(O)c3cc(Cl)c(C)cc3oc2=O)cc1,virus yield,MT-4,IIIB,>33.8 µg/mL
CC(C)C1=C2[C@H]3CC[C@@H]4[C@@]5(C)CC[C@H](OC(=O)[C@H]6C[C@@H](C(=O)O)C6(C)C)C(C)(C)[C@@H]5CC[C@@]4(C)[C@]3(C)CC[C@@]2(CC(=O)NCc2ncc[nH]2)CC1=O,p24 / ELISA,MT-2,92HT599,<1 µM
COc1ccc(/C=C/C(=O)c2c(O)c3cc(Cl)c(C)cc3oc2=O)cc1OC,virus yield,MT-4,IIIB,>59.1 µg/mL
CC(C)C1=C2[C@H]3CC[C@@H]4[C@@]5(C)CC[C@H](OC(=O)[C@H]6C[C@@H](C(=O)O)C6(C)C)C(C)(C)[C@@H]5CC[C@@]4(C)[C@]3(C)CC[C@@]2(CCNCc2nc3ccccc3[nH]2)CC1=O,p24 / ELISA,MT-2,92HT599,<1 µM
Cc1ccc(C(C)C)c2oc(=O)c(C(=O)/C=C/c3ccc(O)cc3)c(O)c12,virus yield,MT-4,IIIB,>3.73 µg/mL
CCCCn1ccc(=O)c2cnc(-c3ccncc3)nc21,p24 / trypan blue,H9,IIIB,7.5 µM
C=CCO/N=C/c1cc(NC(=S)c2ccoc2C)ccc1Cl,cytopathic effect / XTT,CEM + CEM-SS,RF,0.011 µM
Cc1cn([C@H]2C[C@H](N=[N+]=[N-])C([C@@H](O)CO)O2)c(=O)[nH]c1=O,cytopathic effect / trypan blue,MT-4,IIIB,>200 µg/mL
O=C(NCC1CCCO1)c1ccc(C2=NN3C(C(=O)c4ccc(F)cc4)Oc4ccccc4C3C2)cc1,GFP / reporter gene,MT-4,LAI,1–10 µM
CCCn1ccc(=O)c2cnc(-c3ccncc3)nc21,p24 / trypan blue,H9,IIIB,3.5 µM
CN(C)CCNC(=O)c1ccc(C2=NN3C(C(=O)c4ccc(F)cc4)Oc4ccccc4C3C2)cc1,GFP / reporter gene,MT-4,LAI,1–10 µM
CC(C)C1=C2[C@H]3CC[C@@H]4[C@@]5(C)CC[C@H](OC(=O)[C@H]6C[C@@H](C(=O)O)C6(C)C)C(C)(C)[C@@H]5CC[C@@]4(C)[C@]3(C)CC[C@@]2(CCNCc2ccc(N3CCCCC3)cc2)CC1=O,p24 / ELISA,MT-2,92HT599,<1 µM
O=C1Cc2ccc(I)cc2C(=O)N1O,cytopathic effect / absorbance,CEM-SS,IIIB,>10 µM
Cc1occc1C(=S)Nc1ccc(Cl)c(C(=O)OCC2CC2)c1,cytopathic effect / XTT,CEM + CEM-SS,RF,0.022 µM
Cc1ccc([C@H]2c3ccccc3S(=O)(=O)N2C)cc1,p24 / RT activity,,,1.53 µM
O=C1Cc2cc(-c3ccc(F)c(F)c3)ccc2C(=O)N1O,cytopathic effect / absorbance,CEM-SS,IIIB,>10 µM
CC(C)CN(C[C@@H](O)[C@H](Cc1ccccc1)NC(=O)O[C@H]1CO[C@H]2OCC[C@H]21)S(=O)(=O)c1ccc2nc(NC3CCN(C4CCCC4)CC3)sc2c1,reporter gene,MT-4,LAI,0.0142 µM
CC(C)C1=C2[C@H]3CC[C@@H]4[C@@]5(C)CC[C@H](OC(=O)[C@H]6C[C@@H](C(=O)O)C6(C)C)C(C)(C)[C@@H]5CC[C@@]4(C)[C@]3(C)CC[C@@]2([C@@H](O)CNCc2ccc(F)cc2)CC1=O,p24 / ELISA,MT-2,92HT599,<1 µM
COc1cc(/C=C/C(=O)c2c(O)c3cc(Cl)c(C)cc3oc2=O)ccc1O,virus yield,MT-4,IIIB,>9.87 µg/mL
O=C(NCCc1ccccn1)c1ccc(C2=NN3C(C(=O)c4ccc(Br)cc4)Oc4ccccc4C3C2)cc1,GFP / reporter gene,MT-4,LAI,1–10 µM
CCn1ccc(=O)c2cnc(-c3ccncc3)nc21,p24 / trypan blue,H9,IIIB,12.1 µM
N=C1Sc2ccccc2C2=NCCCN12,MTS,PBMC,93BR021,0.6 µM
CN1C(C)(c2cccc(Cl)c2)c2ccccc2S1(=O)=O,p24 / RT activity,,,0.198 µM
CC(C)C1=C2[C@H]3CC[C@@H]4[C@@]5(C)CC[C@H](OC(=O)[C@H]6C[C@@H](C(=O)O)C6(C)C)C(C)(C)[C@@H]5CC[C@@]4(C)[C@]3(C)CC[C@@]2([C@@H](O)CNCc2ccc(Cl)cc2OCCN2CCCC2)CC1=O,p24 / ELISA,MT-2,92HT599,<1 µM
Cc1cn([C@H]2C[C@H](N=[N+]=[N-])C([C@H](O)CO)O2)c(=O)[nH]c1=O,cytopathic effect / trypan blue,MT-4,IIIB,>200 µg/mL
Cc1ccc(C)n1-c1ccc(C(=O)O)c(O)c1,luciferase / cell fusion,PBMC/5.25M7,92US657 R5 CLADE B,28.19 µM
CN1C(c2cccc(O)c2)c2ccccc2S1(=O)=O,p24 / RT activity,,,38.7 µM
O=C1Cc2cc(-c3ccoc3)ccc2C(=O)N1O,cytopathic effect / absorbance,CEM-SS,IIIB,>10 µM
O=C(c1ccc(F)cc1)C1Oc2ccccc2C2CC(c3ccc(C(=O)N4CCN(Cc5ccccc5)CC4)cc3)=NN12,GFP / reporter gene,MT-4,LAI,>10 µM
CCCCCCCCCCCCCCCCSC1CCCC(OP(=O)([O-])OCC[N+](C)(C)C)C1,plaque count / syncytia,CEM + CEM-SS,,0.42 µM
Cc1occc1C(=S)Nc1ccc(Cl)c(COC(C)(C)C)c1,cytopathic effect / XTT,CEM + CEM-SS,IIIB,0.14 µM

Again, the opening 5 rows:

smiles | method | cell line | strain or isolate | value
O=C1Cc2cc(-c3cccc4c3sc3ccccc34)ccc2C(=O)N1O | cytopathic effect / absorbance | CEM-SS | IIIB | >10 µM
O=C(NC1CCCC1)c1ccc(C2=NN3C(C(=O)c4ccc(F)cc4)Oc4ccccc4C3C2)cc1 | GFP / reporter gene | MT-4 | LAI | <1 µM
CC(C)C1=C2[C@H]3CC[C@@H]4[C@@]5(C)CC[C@H](OC(=O)[C@H]6C[C@@H](C(=O)O)C6(C)C)C(C)(C)[C@@H]5CC[C@@]4(C)[C@]3(C)CC[C@@]2([C@@H](O)CN(CCN(C)C)C(=O)c2ccncn2)CC1=O | p24 / ELISA | MT-2 | 92HT599 | <1 µM
CN1C(c2ccccc2Cl)c2ccccc2S1(=O)=O | p24 / RT activity |  |  | 0.093 µM
COc1ccccc1CNC(=O)c1ccc(C2=NN3C(C(=O)c4ccc(F)cc4)Oc4ccccc4C3C2)cc1 | GFP / reporter gene | MT-4 | LAI | >10 µM